Compound potency records, mixed from different reports. Data source: NIAID ChemDB in PubChem.

All rows: whole-cell or culture tests; organism: Semliki Forest virus; cells: VERO; endpoint: EC50

Conditions beyond the fields shown may differ between rows. ECn is the concentration giving n% inhibition of infection, replication or growth.

C=CC1=C[C@@H](n2cnc3c(N)ncnc32)[C@H](O)[C@@H]1O ; method: cytopathic effect ; result: >200 µg/mL
NC1CSCCN2CCc3c([nH]c4ccccc34)[C@H]12 ; method: cytopathic effect ; result: 20 µg/mL
CC(=O)OC[C@H]1O[C@@H](n2ncc(=S)[nH]c2=O)C(OC(C)=O)C1OC(C)=O ; strain or isolate: Sicilian ; method: cytopathic effect ; result: 24.8 µg/mL
N#Cc1cncc([C@H]2O[C@H](CO)[C@H](O)[C@@H]2O)c1 ; method: cytopathic effect ; result: ≥100 µg/mL
CC(=O)OCCOCN1C=CC(=O)NS1(=O)=O ; result: >400 µg/mL
Cc1cn([C@H]2C[C@H]([N+](=O)[O-])[C@@H](CO)O2)c(=O)[nH]c1=O ; method: cytopathic effect ; result: >200 µg/mL
Cc1nc(C(C)C)c2[nH]c(=S)[nH]c(=O)n12 ; method: cytopathic effect ; result: >200 µg/mL
CC=NC(=N)c1nc(-c2ccc(C)cc2)n(COCCO)n1 ; method: cytopathic effect ; result: >100 µg/mL
NC(=O)c1cncc([C@@H]2O[C@H](CO)[C@@H](O)[C@@H]2O)c1 ; method: cytopathic effect ; result: ≥100 µg/mL
CC(=O)OCCOCN1C(=N)/C(=C(\C)O)C(N)=NS1(=O)=O ; result: >400 µg/mL
NC(=O)c1[nH]nc([C@@H]2O[C@H](CO)[C@@H](O)[C@H]2O)c1O ; strain or isolate: Sicilian ; method: cytopathic effect ; result: 0.53 µg/mL
CC=NC(=N)c1nc(-c2ccccc2)n(C/C=C/c2ccccc2)n1 ; method: cytopathic effect ; result: >10 µg/mL
NC1=CC(N)=NS(=O)(=O)N1COCCO ; result: >400 µg/mL
CC(=O)Nc1nc2c(CC(O)CO)nc(C)n2c(=O)[nH]1 ; method: cytopathic effect ; result: >200 µg/mL
NC(=O)c1cncc([C@H]2O[C@H](CO)[C@@H](O)[C@@H]2O)c1 ; method: cytopathic effect ; result: ≥100 µg/mL
CC=NC(=N)c1nc(-c2cccc(OC)c2)n(Cc2ccccc2)n1 ; method: cytopathic effect ; result: >10 µg/mL
Nc1ncnc2c1ncn2[C@@H]1C=C(CO)[C@@H](O)[C@H]1O ; method: cytopathic effect ; result: >40 µg/mL
COc1ccc2[nH]c3c(c2c1)CCN1OCSCC(N)[C@@H]31 ; method: cytopathic effect ; result: 0.07 µg/mL
CC=NC(=N)c1nc(-c2ccc(OC)cc2)n(COCCO)n1 ; method: cytopathic effect ; result: >10 µg/mL
Nc1ncnc2c1ncn2C(CF)CCCO ; method: cytopathic effect ; result: >400 µg/mL
CO[C@H](CO)[C@@H](O)CCn1cnc2c(=O)[nH]c(N)nc21 ; method: cytopathic effect ; result: >400 µg/mL
COc1cc2c(cc1OC)[C@@H]1C(N)CSCON1CC2 ; method: cytopathic effect ; result: 0.7 µg/mL
CCOC(=O)C1=CN(COCCOC(C)=O)S(=O)(=O)N=C1N ; result: >400 µg/mL
CC(=O)OC[C@H]1O[C@@H](n2ncc(=O)[nH]c2=S)C(OC(C)=O)C1OC(C)=O ; strain or isolate: Sicilian ; method: cytopathic effect ; result: 20.9 µg/mL
CCOC(=O)C1=CN(COCCO)S(=O)(=O)NC1=O ; result: >400 µg/mL
Nc1ccn(CCCC(O)CF)c(=O)n1 ; method: cytopathic effect ; result: >400 µg/mL
O=c1[nH]c(=S)cnn1[C@@H]1O[C@H](CO)C(O)C1O ; strain or isolate: Sicilian ; method: cytopathic effect ; result: 18.9 µg/mL
COCC1=C[C@@H](n2cnc3c(N)ncnc32)[C@H](O)[C@@H]1O ; method: cytopathic effect ; result: >400 µg/mL
O=c1cnn([C@@H]2O[C@H](COP(=O)(O)O)[C@@H](O)[C@H]2O)c(=O)[nH]1 ; strain or isolate: Sicilian ; method: cytopathic effect ; result: 14.7 µg/mL
Nc1ncnc2c1ncn2C1CC(COP(=O)(O)O)[C@@H](O)[C@H]1O ; method: cytopathic effect ; result: ≥10 µg/mL
O=c1cnn([C@@H]2O[C@H](CO)[C@@H](O)[C@H]2O)c(=O)[nH]1 ; strain or isolate: Sicilian ; method: cytopathic effect ; result: 0.54 µg/mL
Nc1ncnc2c1ncn2[C@@H]1O[C@H](CO)[C@](O)(C(F)(F)F)[C@H]1O ; method: cytopathic effect ; result: >200 µg/mL
CC=NC(=N)c1nc(-c2cccc(C)c2)n(C/C=C/c2ccccc2)n1 ; method: cytopathic effect ; result: >10 µg/mL
Nc1ccn(CC[C@H](O)CCO)c(=O)n1 ; method: cytopathic effect ; result: >400 µg/mL
CC=NC(=N)c1nc(-c2ccc(OC)cc2)n(C/C=C/c2ccccc2)n1 ; method: cytopathic effect ; result: >100 µg/mL
Cc1cn(CC[C@H](O)CCO)c(=O)[nH]c1=O ; method: cytopathic effect ; result: >400 µg/mL
Nc1ncnc2c1ncn2C1CC(CO)[C@@H](O)[C@H]1O ; method: cytopathic effect ; result: 2 µg/mL
C=CCc1nc(C)n2c(=O)[nH]c(=S)[nH]c12 ; method: cytopathic effect ; result: >200 µg/mL
N#Cc1cncc([C@H]2O[C@H](CO)[C@@H](O)[C@@H]2O)c1 ; method: cytopathic effect ; result: ≥100 µg/mL
CO[C@H](CO)[C@@H](O)CCn1ccc(N)nc1=O ; method: cytopathic effect ; result: >400 µg/mL
CC=NC(=N)c1nc(-c2ccc(C)cc2)n(C/C=C/c2ccccc2)n1 ; method: cytopathic effect ; result: >10 µg/mL
Nc1ncnc2c1ncn2CCCC(O)CF ; method: cytopathic effect ; result: >400 µg/mL
NC(=S)c1cncc([C@@H]2O[C@H](CO)[C@@H](O)[C@@H]2O)c1 ; method: cytopathic effect ; result: ≥100 µg/mL
C[C@@]1(O)[C@@H](CO)O[C@@H](n2cnc3c(N)ncnc32)[C@@H]1O ; method: cytopathic effect ; result: >100 µg/mL
C=C(N=CC)c1nc(-c2ccccc2)n([C@@H]2O[C@H](CO)[C@@H](O)[C@H]2O)n1 ; method: cytopathic effect ; result: >100 µg/mL